Compound potency records, mixed from different reports. Data source: NIAID ChemDB in PubChem.

Common to all: tests in culture; agent: Mycobacterium tuberculosis

MIC50, MIC90 and the like: level of inhibition, or share of isolates inhibited. Rows are shuffled and stem from different studies. Percent inhibition refers to the dose given; in toxicity tests it is the harm to the cells. ECn: concentration that inhibits the pathogen or its effect by n%. MIC bound comes from a single tested concentration. An empty or dashed field is not shown.

structure	strain or isolate	read by	read-out	dose	result
CCN1C(=O)C(C)c2cc(C(=O)CN3CCN(c4noc5c(Cl)cccc45)CC3)ccc21	H37Rv	visual reading / absorbance	MIC	-	3.12 µg/mL
CCn1cc(C(=O)O)c(=O)c2cc(F)c(N3CCN(C)CC3)cc21	H37Rv	-	MIC	-	5 µg/mL
CC1COc2c(N3CCN(Cc4ccc5c(c4)OCO5)CC3)c(F)c([N+](=O)[O-])c3c(=O)c(C(=O)O)cn1c23	MDR-TB	agar	MIC99	-	5.95 µM
C[C@]1(COc2ccc(N3CCC(Oc4ccc(OC(F)(F)F)cc4)CC3)cc2)Cn2cc([N+](=O)[O-])nc2O1	56 strains (EMB-susceptible)	-	MIC90	-	0.012 µg/mL
CO[C@H]1/C=C/O[C@@]2(C)Oc3c(C)c(O)c4c(O)c(c5c(c4c3C2=O)NC2(CCN(CC(C)C)CC2)N=5)=NC(=O)/C(C)=C\C=C\[C@H](C)[C@H](O)[C@@H](C)[C@@H](O)[C@@H](C)[C@H](OC(C)=O)[C@@H]1C	32 clinical isolates	-	MIC90	-	10 µg/mL
O=C(N/N=C/c1ccc(Cl)c(Cl)c1)c1ccncc1	H37Rv	resazurin	inhibition	6.25 µg/mL	97%
CO[C@H]1/C=C/O[C@@]2(C)Oc3c(C)c(O)c4c(c3C2=O)C(=O)C(N2CCC(=NNc3ccc([N+](=O)[O-])cc3[N+](=O)[O-])CC2)=C(NC(=O)/C(C)=C\C=C\[C@H](C)[C@H](O)[C@@H](C)[C@@H](O)[C@@H](C)[C@H](OC(C)=O)[C@@H]1C)C4=O	H37Rv	-	MIC	-	0.0025 µg/mL
Cc1occc1C(=S)Nc1ccc(Cl)c(C(=O)OCC(F)(F)F)c1	H37Rv	BACTEC	MIC bound	-	>12.5 µg/mL
O=[N+]([O-])c1cn2c(n1)OC(Oc1ccccc1)C2	H37Rv	-	MIC	-	0.24 µg/mL
COC(=O)[C@@]1(C)CCC[C@]2(C)[C@@H]1C[C@H]1O[C@]13[C@@H](O)[C@]1(C(C)C)O[C@@H]1[C@H]1O[C@]132	H37Rv	BACTEC	MIC	-	≥12.5 µg/mL
Cc1[nH][nH]c(=O)c1N=Nc1ccc(-c2n[nH]c(=S)n2-c2ccccc2)cc1	H37Rv	-	EC50	-	>12.5 µg/mL
CC1SC2=NC3=C(c4ccccc4C3=O)C(c3ccc(Cl)cc3)N2C1=O	H37Rv	BACTEC	MIC bound	-	>12.5 µg/mL
CC1Cn2cc([N+](=O)[O-])nc2O1	H37Rv	-	MIC	-	1.95 µg/mL
CCn1c(-c2ccc(N=Nc3c(C)[nH]n(-c4ccccc4)c3=O)cc2)n[nH]c1=S	H37Rv	-	EC50	-	<12.5 µg/mL
CC(=O)NNc1nc(C)c(C(=O)NNC(=O)C(=O)Nc2cccc(C(C)=O)c2)s1	H37Rv	BACTEC	MIC bound	-	>12.5 µg/mL
CC(CNC[C@@H]1CC[C@H]2C[C@@H]1C2(C)C)NC[C@@H]1CC[C@H]2C[C@@H]1C2(C)C	H37Rv	-	MIC	-	0.2 µM
O=C1NNC(=O)c2ccccc2C(=O)S1	H37Rv	BACTEC	MIC	-	≥12.5 µg/mL
COc1c(N2CCNC(C)C2)c(F)cc2c(=O)c(C(=O)O)cn(C3CC3)c12	Z178	-	MIC	-	0.5 µg/mL
CC(CCC(=O)NN)C1CCC2C3CCC4CC(O)CCC4(C)C3CCC12C	H37Rv	BACTEC	MIC	-	≥12.5 µg/mL
CC1C(=O)Nc2ccc(C(=O)CN3CCN(c4noc5cccc(Cl)c45)CC3)cc21	H37Rv	visual reading / absorbance	MIC	-	25 µg/mL
CCCCCN(C)Cc1cc(C(=O)OCC)ccc1N1C(=O)c2[nH]c3c(NC)cc(F)cc3c(=O)c2C1=O	H37Rv	resazurin	MIC	-	4 µg/mL
C[C@@H]1[C@H]2C[C@@H](C[C@H]1NCCNC1CCCCCCC1)C2(C)C	H37Rv	-	MIC	-	1 µM
CO[C@H]1/C=C/O[C@@]2(C)Oc3c(C)c(O)c4c(O)c(c(C=Nc5ccccc5)c(O)c4c3C2=O)NC(=O)/C(C)=C\C=C\[C@H](C)[C@H](O)[C@@H](C)[C@@H](O)[C@@H](C)[C@H](OC(C)=O)[C@@H]1C	H37Rv	-	MIC	-	5 µg/mL
c1ccc([C@H]2C[C@@H]2NCCNC23CC4CC(CC(C4)C2)C3)cc1	H37Rv	-	MIC	-	5 µM
Cc1ccc(S(=O)(=O)NNC(=O)C2(C)CC2(C)C(=O)O)cc1	H37Rv	BACTEC	inhibition	12.5 µg/mL	10%
Cc1[nH]n(CCO)c(=O)c1N=Nc1ccc(C(=O)N/N=C/c2ccc(F)cc2)cc1	H37Rv	-	EC50	-	>12.5 µg/mL
O=[N+]([O-])c1cnc2n1CC(c1ccccc1)O2	H37Rv	-	MIC	-	1.95 µg/mL
COc1ccc(CSc2cc(C(N)=S)ccn2)cc1	My 331/88	-	MIC	-	31 µM
Cc1[nH]n(CCO)c(=O)c1N=Nc1ccc(-c2n[nH]c(=S)n2-c2ccccc2)cc1	H37Rv	-	inhibition	12.5 µg/mL	9%
CCC1Cn2cc([N+](=O)[O-])nc2O1	H37Rv	-	MIC	-	0.06 µg/mL
Clc1ccc(-c2nnc3n2NC(c2ccccc2)S3)c(Cl)c1	H37Rv	BACTEC	MIC	-	≥128 µg/mL
CO[C@H]1/C=C/O[C@@]2(C)Oc3c(C)c(O)c4c(O)c(c(/C=N/N5CCOCC5)c(O)c4c3C2=O)NC(=O)/C(C)=C\C=C\[C@H](C)[C@H](O)[C@@H](C)[C@@H](O)[C@@H](C)[C@H](OC(C)=O)[C@@H]1C	H37Rv	-	MIC	-	0.2 µg/mL
CC1COc2c(N3CCN(C)CC3)c(F)cc3c(=O)c(C(=O)O)cn1c23	Isolate 870729	-	MIC	-	<0.5 µg/mL
N#Cc1ccnc(SCc2ccccc2)c1	My 331/88	-	MIC	-	125 µM
CC1C(=O)Nc2ccc(C(=O)CN3CCN(c4noc5c(Cl)cccc45)CC3)cc21	H37Rv	visual reading / absorbance	MIC	-	50 µg/mL
CO[C@H]1/C=C/O[C@@]2(C)Oc3c(C)c(O)c4c(c3C2=O)C(=O)C(N2CCC(=NO)CC2)=C(NC(=O)/C(C)=C\C=C\[C@H](C)[C@H](O)[C@@H](C)[C@@H](O)[C@@H](C)[C@H](OC(C)=O)[C@@H]1C)C4=O	H37Rv	-	MIC	-	0.0025 µg/mL
CO[C@H]1/C=C/O[C@@]2(C)Oc3c(C)c(O)c4c(O)c(c(/C=N/N5CCN(C6CCCC6)CC5)c(O)c4c3C2=O)NC(=O)/C(C)=C\C=C\[C@H](C)[C@H](O)[C@@H](C)[C@@H](O)[C@@H](C)[C@H](OC(C)=O)[C@@H]1C	Isolate 900201 drug-susceptible	-	MIC	-	0.063 µg/mL
CC1C(=O)Nc2ccc(C(=O)CN3CCN(c4ccccn4)CC3)cc21	H37Rv	visual reading / absorbance	MIC	-	25 µg/mL
CCC(CO)NCCNC(C)CO	H37Rv	-	MIC	-	75 µM
NNC(=O)c1ccncc1	MUN (VM-R)	-	MIC	-	0.1 µg/mL
CC(=N)c1cc(CNCc2cccc(C(F)(F)F)c2)c(=O)[nH]c1Nc1ccccn1	H37Rv	broth dilution	MIC	-	>100 µM
CO[C@H]1/C=C/O[C@@]2(C)Oc3c(C)c(O)c4c(O)c(c(/C=N/N5CCOCC5)c(O)c4c3C2=O)NC(=O)/C(C)=C\C=C\[C@H](C)[C@H](O)[C@@H](C)[C@@H](O)[C@@H](C)[C@H](O)[C@@H]1C	H37Rv	-	MIC	-	0.2 µg/mL
Cc1onc(-c2c(F)cccc2F)c1C(=O)N1CCN(c2c(F)c([N+](=O)[O-])c3c(=O)c(C(=O)O)cn4c3c2OCC4C)CC1	-	agar	MIC99	-	5.1 µM
CCN1C(=O)Cc2cc(C(=O)CN3CCN(c4noc5c(Cl)cccc45)CC3)ccc21	H37Rv	visual reading / absorbance	MIC	-	3.12 µg/mL
NC(=S)c1cnccn1	-	resazurin	inhibition	6.25 µg/mL	-3%
C[C@H](NCCNCCC(c1ccccc1)c1ccccc1)C1CCCCC1	H37Rv	-	MIC	-	3 µM
CO[C@H]1/C=C/O[C@@]2(C)Oc3c(C)c(O)c4c(c3C2=O)C(=O)C(N2CCC(=NNC(N)=S)CC2)=C(NC(=O)/C(C)=C\C=C\[C@H](C)[C@H](O)[C@@H](C)[C@@H](O)[C@@H](C)[C@H](OC(C)=O)[C@@H]1C)C4=O	H37Rv	-	MIC	-	0.0025 µg/mL
O=C1Nc2ccccc2C12C=C(c1ccccc1)Nc1ccc(F)cc1S2	-	-	MIC	-	<12.5 µg/mL
CCOC(=O)/C(N=Nc1ccc(-c2n[nH]c(=S)n2-c2ccccc2)cc1)=C(\C)O	H37Rv	-	EC50	-	>12.5 µg/mL
CC1=CC[C@@H](Br)C(C)(C)[C@]12CC[C@]1(C)O[C@@H]1C2	H37Rv	BACTEC	MIC bound	-	>12.5 µg/mL
Cc1ccc(C(F)(F)F)cc1CNCc1cc(C(=N)C2CC2)c(Nc2ccccc2)[nH]c1=O	H37Rv	broth dilution	MBC	-	<0.5 µM
O=[N+]([O-])c1cn2c(n1)OC1CCCCC12	H37Rv	-	MIC	-	31.2 µg/mL
CC1(C)[C@H]2CC[C@@H](CNCCNC3CCCCCCC3)[C@@H]1C2	H37Rv	-	MIC	-	1 µM
COc1c(I)c(OC)c2c(c1I)OC1OCCC21	H37Rv	BACTEC	MIC bound	-	>12.5 µg/mL
NC(=S)c1ccnc(SCc2cccc(Cl)c2)c1	My 331/88	-	MIC	-	16 µM
O=C1c2ccccc2C(=O)c2sc(Nc3ccc(Cl)c(Cl)c3)nc21	H37Rv	BACTEC	MIC	-	6.25 µg/mL
Cc1ccc(NC(=O)C(=O)Nc2ccc(C)cc2)cc1	-	-	MIC	-	1000 µM
CC(O)CCNc1nnc2c3ccccc3n(C)c2n1	H37Rv	resazurin	MIC bound	-	>6.25 µg/mL
CC1C(=O)N(C)c2ccc(C(=O)CN3CCN(c4noc5c(Cl)cccc45)CC3)cc21	H37Rv	visual reading / absorbance	MIC	-	6.25 µg/mL
O=C(O)C1C(c2c3ccc(=O)c(O)c-3oc3c(O)c(O)ccc23)C2(Cl)C(Cl)=C(Cl)C1(Cl)C2(Cl)Cl	H37Rv	BACTEC	inhibition	12.5 µg/mL	0%
CO[C@H]1/C=C/O[C@@]2(C)Oc3c(C)c(O)c4c(O)c(c(CN5CCCC5)c(O)c4c3C2=O)NC(=O)/C(C)=C\C=C\[C@H](C)[C@H](O)[C@@H](C)[C@@H](O)[C@@H](C)[C@H](OC(C)=O)[C@@H]1C	H37Rv	-	MIC	-	0.05 µg/mL
Cc1ccc(NC(=O)CNC(C)(C)C)cc1Cl.Cl	H37Rv	BACTEC	inhibition	12.5 µg/mL	0%
NC(=S)c1ccnc(SCc2cccc(F)c2)c1	My 331/88	-	MIC	-	31 µM
CN1CCCn2c(nc3ccccc3c2=O)C1	H37Rv	resazurin	MIC bound	-	>6.25 µg/mL
NC(=S)c1ccnc(SCc2ccc([N+](=O)[O-])cc2)c1	My 331/88	-	MIC	-	16 µM
COc1cc(CCCOC2OC(COC3OCC(O)C(O)C3O)C(O)C(O)C2O)cc2cc(-c3ccc4c(c3)OCO4)oc12	H37Rv	BACTEC	MIC	-	≥12.5 µg/mL
CCN1C(=O)C(C)c2cc(C(=O)CN3CCN(c4ccc([N+](=O)[O-])cc4)CC3)ccc21	H37Rv	visual reading / absorbance	MIC	-	1.56 µg/mL
O=[N+]([O-])c1cn2c(n1)OC(CCl)C2	H37Rv	-	MIC	-	0.12 µg/mL
CC1CN(c2c(F)cc3c(=O)c(C(=O)O)cn4c3c2OC[C@@H]4C)CC(C)O1	MDR-TB	agar	MIC99	-	4.14 µM
Clc1cc2ncn(C3CCCO3)c2cc1Cl	H37Rv	resazurin	inhibition	6.25 µg/mL	14%
CCN1C(=O)C(C)c2cc(C(=O)CN3CCN(c4noc5cccc(Cl)c45)CC3)ccc21	H37Rv	visual reading / absorbance	MIC	-	3.12 µg/mL
CCC(CO)C(=O)c1ccc(OCc2ccccc2)cc1O	H37Rv	fluorescence	EC50	-	0.38 µM
Cc1cccc(CSc2cc(C(N)=S)ccn2)c1	My 331/88	-	MIC	-	31 µM
Cc1ncc(C(N)=S)c(N)n1	H37Rv	resazurin	inhibition	6.25 µg/mL	-26%
CCCCC1(C)Cn2cc([N+](=O)[O-])nc2O1	H37Rv	-	MIC	-	0.015 µg/mL

A second listing of 8 rows from above:

structure,strain or isolate,read by,read-out,dose,result
Cc1cccc(CSc2cc(C(N)=S)ccn2)c1,My 331/88,-,MIC,-,31 µM
CC1COc2c(N3CCN(C)CC3)c(F)cc3c(=O)c(C(=O)O)cn1c23,Isolate 870729,-,MIC,-,<0.5 µg/mL
CC1C(=O)Nc2ccc(C(=O)CN3CCN(c4noc5cccc(Cl)c45)CC3)cc21,H37Rv,visual reading / absorbance,MIC,-,25 µg/mL
CC1COc2c(N3CCN(Cc4ccc5c(c4)OCO5)CC3)c(F)c([N+](=O)[O-])c3c(=O)c(C(=O)O)cn1c23,MDR-TB,agar,MIC99,-,5.95 µM
CO[C@H]1/C=C/O[C@@]2(C)Oc3c(C)c(O)c4c(c3C2=O)C(=O)C(N2CCC(=NNc3ccc([N+](=O)[O-])cc3[N+](=O)[O-])CC2)=C(NC(=O)/C(C)=C\C=C\[C@H](C)[C@H](O)[C@@H](C)[C@@H](O)[C@@H](C)[C@H](OC(C)=O)[C@@H]1C)C4=O,H37Rv,-,MIC,-,0.0025 µg/mL
CC(O)CCNc1nnc2c3ccccc3n(C)c2n1,H37Rv,resazurin,MIC bound,-,>6.25 µg/mL
CO[C@H]1/C=C/O[C@@]2(C)Oc3c(C)c(O)c4c(O)c(c(/C=N/N5CCN(C6CCCC6)CC5)c(O)c4c3C2=O)NC(=O)/C(C)=C\C=C\[C@H](C)[C@H](O)[C@@H](C)[C@@H](O)[C@@H](C)[C@H](OC(C)=O)[C@@H]1C,Isolate 900201 drug-susceptible,-,MIC,-,0.063 µg/mL
C[C@@H]1[C@H]2C[C@@H](C[C@H]1NCCNC1CCCCCCC1)C2(C)C,H37Rv,-,MIC,-,1 µM